# According to patent CN109384844A, “一种抗金黄色葡萄球菌α溶血素单克隆抗体及应用” (INST OF BASIC MEDICAL SCIENCES THE ACADEMY OF MILITARY …, dated 2019):
# T1: Hla蛋白 (金黄色葡萄球菌α溶血素, 具有His-tag标签) (Staphylococcus aureus)
# T1 chain: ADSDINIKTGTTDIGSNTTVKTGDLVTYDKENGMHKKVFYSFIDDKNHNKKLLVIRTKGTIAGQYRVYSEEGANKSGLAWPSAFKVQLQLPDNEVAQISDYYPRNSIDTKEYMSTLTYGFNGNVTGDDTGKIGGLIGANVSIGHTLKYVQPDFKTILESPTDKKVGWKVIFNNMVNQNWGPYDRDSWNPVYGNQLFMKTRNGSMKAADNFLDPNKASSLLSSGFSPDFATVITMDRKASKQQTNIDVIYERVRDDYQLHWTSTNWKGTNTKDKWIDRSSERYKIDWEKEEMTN
# B1: AAH-1抗体 (antibody, V domains shown)
# VH: QMQLVQSGAEIRRPGSLVKVSCQASGGSFKNFALNWVRQAPGLGLQWMGSITPFLNVPTYAQQFQGRVTMSTDTSTSTAYMVLRRLTSDDTAVYYCARGNSLLDYWGQGTLVTVSS
# VL: EIVLTQSPATLSVSPGDGATLSCRASQSVSGNLAWYQKKPGQAPRLLIYDTSIRAAGVPPRFSGSGSGTEFTLTISSLQSEDFAVYYCQQYHNLPPLTFGPGTKLEIK
# Target: T1, Hla蛋白 (金黄色葡萄球菌α溶血素, 具有His-tag标签)
# Test: cell-based or functional assay
binder,measurement,value
B1,抑制Hla蛋白对兔红细胞的溶血活性 (OD405 of supernatant),1 molar ratio AAH-1:Hla for complete inhibition
